According to US20200123233A1, “Amino acid sequences directed against envelope proteins of a virus and polypeptides comprising the same for the treatment of viral diseases” (published 2020):
Positions count from the first letter of the chain named.

B1: IV153 (VHH)
VHH: QVQLQESGGGLVQAGGSLRLSCAFSGDTFSFYTLGWFRQAPGKEREFVAATSNIGGYIYYGDSVKGRFTISGDNAKNTVYLQMSSLKPEDTAVYYCAATLRSGSMWYQNVRVNDNPYWGQGTQVTVSS
B2: IV125 (VHH)
VHH: QVQLQQSGGGLVQAGGSLRLSCAASGSAFSINTMGWYRQAPGKQRELVAVISSGSGGSTNYADSVKGRFTISRDNAKNTVYLHMNSLKPEDTAVYYCNAGSRFNPFGSAYDYWGQGTQVTVSS
B3: IV144 (VHH)
VHH: QVQLQQSGGGLVQAGGSLRLSCAASGNIISFNPMGWHRQAPGKQRELVASITSGGSISYVDSVKGRFTISRDSAKNTIYLQMNSLKPEDTAVYFCAGEGPRRRGSTWYTDTYWGQGTQVTVSS
B4: IV157 (VHH)
VHH: QVQLQQSGGGLVQPGGSLRLSCAASRSDISFNPMGWYRQAPGKQRELVATISNGGTTNYADSVKGRFTISQDNAKTTVYLQMNSLKPEDTAVYYCNGRGPRYATTGWYTDDYWGQGTQVTVSS
B5: IV160 (VHH)
VHH: B4 VHH with Q6E
B6: IV156 (VHH)
VHH: B4 VHH with D28G, I29F, S52T, N53S, Q71T, Y79F, Y102R, A103G, T105A, Y108F
B7: IV124 (VHH)
VHH: QVQLQESGGGLVQPGGSLRLSCAASGSIFSINRMGWYRQAPGKQRELVAAITYGGSTNYADSVKGRFTISRDNAKNTVYLQMNSLKPEDTAVYYCNAGSTYSPFGDKYDYWGQGTQVTVSS
B8: IV146 (VHH)
VHH: QVQLQQSGGGLVQAGGSLRLSCAASGSSFSINAMGWYRQAPGKQRELVAAISSGGSANYADSVKGRFTISRDNAKNTVYLQMNSLKPEDTAVYYCNAGSRFNPFGSAYDYWGQGTQVTVSS
B9: IV29 (VHH)
VHH: QVQLQESGGGLVQAGGSLRLSCVASGRTLDNYAMGWFRQAPGAEREFVGAISANGEDTQYTESVQGRFTISKDNAKSTVYLDMNSLKPEDTAVYYCAADRKTLTYYTSRLRSRYEYWGQGTQVTVSS
B10: IV31 (VHH)
VHH: B9 VHH with E6Q, V23A, D30N, N54S, E56D, D57S, Y80V, R100G, Y105F, E115D
B11: IV34 (VHH)
VHH: QVQLQESGGGLVQTGGSLRLSCAASGGTFGGYAMAWFRQAPGKGREFVASVIWNGGTTNYLDSVKDRFTVSRDMANNTMYLQMNSLKPEDTAVYICGAASGYRSTDRLSEPGWVNYWGQGTQVTVSS

The binders below were run against authentic influenza antigen of A/PR/8/34 (ATCC VR-1469), serotype H1N1 (influenza A virus A/PR/8/34 (H1N1), UniProt P03452 18-565).

**Q.** For B1, which “Extinction at 450 nm in ELISA” value is on record?
**A.** Its value is 0.045 OD450.

**Q.** For B2, which “Extinction at 450 nm in ELISA” value is on record?
**A.** Its value is 0.461 OD450.

**Q.** Which “Extinction at 450 nm in ELISA” value does the source give for B3 here?
**A.** The value was 0.12 OD450.

**Q.** B4 was tested. Which “Extinction at 450 nm in ELISA” value did it give?
**A.** The value was 0.046 OD450.

**Q.** How did the “Extinction at 450 nm in ELISA” value turn out when B5 was run?
**A.** Its value is 0.052 OD450.

**Q.** B6 was tested. Which “Extinction at 450 nm in ELISA” value did it give?
**A.** The value was 0.048 OD450.

**Q.** For B7, which “Extinction at 450 nm in ELISA” value is on record?
**A.** The value was 0.413 OD450.

**Q.** B8 was tested. Which “Extinction at 450 nm in ELISA” value did it give?
**A.** The value was 0.299 OD450.

The binders below were run against authentic influenza antigen of strain A/PR/8/34 (ATCC VR-1469), serotype H1N1 (influenza A virus A/PR/8/34 (H1N1), UniProt P03452 18-565).

**Q.** Which “Extinction at 450 nm in ELISA” value does the source give for B9 here?
**A.** Its value is 0.053 extinction at 450 nm.

**Q.** B10 was tested. Which “Extinction at 450 nm in ELISA” value did it give?
**A.** Its value is 0.045 extinction at 450 nm.

**Q.** B11 was tested. Which “Extinction at 450 nm in ELISA” value did it give?
**A.** Its value is 0.05 extinction at 450 nm.
